Here are results for one molecule from patent US20230380451A1, “MEANS AND METHODS TO DETOXIFY MYCOTOXINS” (priority 2020, published 2023).

Molecules are shown by their SMILES.

The series relates to primary epithelial cells derived from rainbow trout.

Consider `CC1=C[C@H]2O[C@@H]3[C@H](O)C[C@](C)([C@@]2(CO)[C@H](O)C1=O)[C@]31CO1` [DON, (3α,7α)-3,7,15-trihydroxy-12,13-epoxytrichothec-9-en-8-one], for which the “Toxicity towards epithelial cells (fluorescence relative to highest DON concentration = 100%)” value worked out at 85.6%.
